Source: PubChem BioAssay AID624099 (ICCB-Longwood, 2012)
Aim: 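Knock-downs relieving repression by E2 of an HPV18 LCR luciferase reporter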 (primary screen). Cells: human C33A cervical carcinoma cells (HPV-negative) stably expressing BPV1 E2 and an HPV18 LCR luciferase reporter. Reagent: siRNA pool against human genes, 40 nM. Time to read-out: 72 h. Read-out: 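HPV18 LCR reporter light per well, converted to plate-wise z-scores that exclude control wells, and averaged over triplicate plates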. Reading the numbers: mean z-score and z-score: higher = stronger reporter signal, weaker E2 silencing. Active means: 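Mean z ≥ 2 together with z ≥ 2 in two or more of the three replicates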.
This is a random part of about 21,000 reagents tested. 497 of them (2.4%) were called active. 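Higher z means weaker E2 silencing; only reporter increases were scored, and knock-downs that hurt cell survival may mask genuine repressor factors.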 A number with no mark means an inactive call. The numbers tell different reagents against one gene apart.

| Target gene | reagent | mean z-score | z-score, replicate A | z-score, replicate B | z-score, replicate C |
| --- | --- | --- | --- | --- | --- |
| TSPAN1 | 1 | -1.87 | -2.07 | -1.69 | -1.85 |
| SLC2A6 | 1 | -1.38 | -1.27 | -1.2 | -1.66 |
| BTN2A1 | 1 | 0.32 | 0.67 | -0.06 | 0.35 |
| STIP1 | 1 | 3.03 (active) | 2.85 | 3.14 | 3.11 |
| CYP2A13 | 1 | -0.59 | -0.27 | -0.63 | -0.87 |
| LOC283034 (retired record) | 1 | -0.34 | -0.36 | -0.67 | 0.02 |
| CRMP1 | 1 | 1.14 | 0.97 | 1.24 | 1.22 |
| PTBP3 | 1 | 0.65 | 0.89 | 0.55 | 0.5 |
| COPS3 | 1 | 0.09 | 0.03 | 0.19 | 0.03 |
| PPP4R2 | 1 | 0.36 | 0.29 | 0.54 | 0.25 |
| RASSF7 | 1 | -0.03 | -0.11 | 0.3 | -0.26 |
| DCLK1 | 1 | -1.35 | -1.24 | -1.51 | -1.31 |
| IRS2 | 1 | -0.8 | -0.8 | -0.8 | -0.81 |
| RYBP | 1 | 0.77 | 0.63 | 0.73 | 0.97 |
| TP53I13 | 1 | 0.42 | 0.47 | 0.71 | 0.08 |
| ATP6V0A2 | 1 | 1.81 | 1.67 | 1.4 | 2.37 |
| JHY | 1 | -0.54 | -0.04 | -0.88 | -0.7 |
| ERFL | 1 | -0.02 | -0.15 | -0.01 | 0.1 |
| CCDC87 | 1 | -1.68 | -1.7 | -1.78 | -1.57 |
| CDAN1 | 1 | -0.19 | -0.16 | -0.19 | -0.22 |
| OR6C2 | 1 | -0.2 | -0.25 | -0.52 | 0.17 |
| ERAL1 | 1 | -1.5 | -1.14 | -1.61 | -1.76 |
| MIPEP | 1 | -0.97 | -0.85 | -1.09 | -0.95 |
| PI4K2B | 1 | -1 | -1.3 | -1.25 | -0.46 |
| LINC01097 | 1 | 0.11 | 0.2 | -0.03 | 0.16 |
| LCMT2 | 1 | 0 | 0.14 | -0.06 | -0.07 |
| FLG | 1 | 0.1 | 0.11 | 0.18 | 0.01 |
| FLG | 2 | -0.38 | -0.05 | -0.36 | -0.73 |
| NFRKB | 1 | 0.33 | 0.43 | 0.26 | 0.31 |
| S100A11 | 1 | 1.12 | 1.17 | 1.52 | 0.67 |
| POC1A | 1 | 0.39 | 0.14 | 0.33 | 0.7 |
| PTH | 1 | -0.45 | -0.21 | -0.69 | -0.44 |
| CD276 | 1 | 1.19 | 1.36 | 1.44 | 0.77 |
| PELI3 | 1 | 1.54 | 1.61 | 1.78 | 1.24 |

Entries listed so far marked active (1):
| Target gene | reagent | mean z-score | z-score, replicate A | z-score, replicate B | z-score, replicate C |
| --- | --- | --- | --- | --- | --- |
| STIP1 | 1 | 3.03 (active) | 2.85 | 3.14 | 3.11 |

The results go on:
| Target gene | reagent | mean z-score | z-score, replicate A | z-score, replicate B | z-score, replicate C |
| --- | --- | --- | --- | --- | --- |
| DCAF4 | 1 | 0.36 | 0.45 | 0.44 | 0.18 |
| DEMA1 | 1 | 0.63 | 0.66 | 0.6 | 0.61 |
| MYO1B | 1 | 0.33 | 0.12 | 0.58 | 0.3 |
| ANO6 | 1 | -0.09 | 0.25 | -0.19 | -0.32 |
| LOC130063 (retired record) | 1 | -0.04 | 0.01 | -0.03 | -0.11 |
| FAM53C | 1 | -1.13 | -0.66 | -1.19 | -1.53 |
| H2AC18 | 1 | -1.38 | -1.73 | -1.14 | -1.27 |
| HYAL3 | 1 | 1.95 | 1.77 | 2.07 | 2.02 |
| SLC25A25 | 1 | -0.38 | -0.69 | -0.34 | -0.1 |
| ERI2 | 1 | -0.01 | -0.16 | -0.07 | 0.19 |
| LOC158812 (retired record) | 1 | -1.75 | -1.56 | -1.97 | -1.72 |
| ADCY4 | 1 | 1.15 | 0.84 | 1.36 | 1.24 |
| GATA2 | 1 | -0.89 | -0.65 | -1.06 | -0.97 |
| TGIF2 | 1 | 0.45 | 0.55 | 0.24 | 0.57 |
| ZNF480 | 1 | -0.54 | -0.09 | -0.88 | -0.67 |
| IGDCC3 | 1 | 4.64 (active) | 4.32 | 4.58 | 5.01 |
| QRSL1 | 1 | -1.3 | -1.43 | -1.04 | -1.45 |
| MED12 | 1 | 1.61 | 1.87 | 1.45 | 1.51 |
| HDGFL2 | 1 | -0.28 | -0.12 | -0.33 | -0.39 |
| CSAD | 1 | -1.68 | -1.4 | -1.74 | -1.89 |
| POLR2D | 1 | -1.5 | -1.26 | -1.26 | -1.98 |
| C1GALT1 | 1 | 0.15 | -0.15 | -0.14 | 0.75 |
| USP54 | 1 | 1.14 | 1.28 | 0.94 | 1.22 |
